Compound potency records, mixed from different reports. Data source: NIAID ChemDB in PubChem.

Common to all: tests in culture; agent: HIV-1

Blank or dashed fields: not listed here. Conditions beyond the fields shown may differ between rows. ECn is the concentration giving n% inhibition of infection, replication or growth.

compound | strain | changes | cell line | method | conditions | read-out | result
CC(C)[C@H](NC(=O)N(C)Cc1ccccn1)C(=O)N[C@@H](Cc1ccccc1)C(=O)C(F)(F)[C@H](Cc1ccccc1)NC(=O)[C@@H](NC(=O)N(C)Cc1ccccn1)C(C)C | IIIB |  | MT-4 | cytopathic effect / MTT |  | EC50 | 0.035 µM
Nc1nc2c(ncn2[C@H]2OC[C@@](F)(CCP(=O)(O)O)[C@H]2F)c(=O)[nH]1 | LAI |  | PBMC | MTT |  | EC90 | 95 µM
O=c1[nH]cnc2c1ncn2[C@H]1CC[C@@H](CO)O1 | IIIB |  | MT-2 |  |  | EC50 | 20 µM
O=c1ccn(Cc2ccccc2)c(=O)n1-c1ccccc1 | IIIB |  | PBMC |  |  | EC50 | >216 µM
CC(C)=CCN1Cc2cc(Cl)cc3[nH]c(=S)n(c23)C[C@@H]1C |  | RT-K70R | MT-4 |  |  | EC50 | <1.5 µM
COC(=O)C(C)NP(=O)(OC[C@H]1C/C1=C/n1cnc2c(N)nc(N)nc21)Oc1ccccc1 |  |  | CEM + CEM-SS |  |  | EC50 | 3.5 µM
O=c1ccn([C@H]2C=C[C@@H](CO)O2)c(=O)[nH]1 | IIIB Laboratory strain |  | MT-4 | cytopathic effect / trypan blue |  | EC50 | >125 µM
Cn1c2ccccc2c2c3c(c4c5ccccc5n(CCC#N)c4c21)CNC3=O |  |  | U1/HIV-1(PMA) + U1 | p24 |  | EC50 | 0.04 µM
O=C1CCN(CCOc2ccc(Cl)cc2C(=O)c2cc(Cl)cc(Cl)c2)C(=O)N1 |  |  |  | RT activity | pseudotyped | EC50 | 0.09 µM
Nc1ccn([C@H]2C=C[C@@H](CO)O2)c(=O)n1 | IIIB Laboratory strain |  | MT-4 | cytopathic effect / trypan blue |  | EC50 | 0.13 µM
Cc1cc(C)cc(C(=O)c2cc(Cl)ccc2OCCN2C(=O)NC(=O)C(C)C2C)c1 |  | K103N + Y181C |  | RT activity | pseudotyped | EC50 | 3.6 µM
CC(C)C[C@H](NC(=O)[C@@H](NC(=O)N(C)Cc1ccccn1)C(C)C)C(=O)C(F)(F)[C@H](CC(C)C)NC(=O)[C@@H](NC(=O)N(C)Cc1ccccn1)C(C)C | IIIB |  | MT-4 | cytopathic effect / MTT |  | EC50 | 2.3 µM
Nc1ncnc2c1ncn2[C@H]1CC[C@@H](CO)O1 | IIIB |  | ATH8 | cytopathic effect / trypan blue |  | EC50 | <10 µM
CC(C)=CCN1Cc2cc(Cl)cc3[nH]c(=S)n(c23)C[C@@H]1C |  |  | CEM |  |  | EC50 | <0.001 µM
NC(=O)c1ncn([C@@H]2O[C@H](CO)[C@@H](O)[C@H]2O)n1 | IIIB |  | MT-4 | cytopathic effect / trypan blue |  | EC50 | >20 µg/mL
Cn1c2ccccc2c2c3c(c4c5ccccc5n(CC(F)F)c4c21)CNC3=O |  |  | U1/HIV-1(TNFalpha) + U1 | p24 |  | EC50 | 0.03 µM
O=c1ccn(Cc2c(F)cccc2F)c(=O)n1Cc1c(F)cccc1F | IIIB |  | PBMC |  |  | EC50 | 41.7 µM
Cc1cn([C@H]2C[C@H](N=[N+]=[N-])[C@@H](CO)O2)c(=O)[nH]c1=O | IIIB |  | MT-2 |  |  | EC50 | 0.09 µM
Nc1nc2c(nc(Br)n2[C@@H]2C[C@H](CO)[C@H]2CO)c(=O)[nH]1 | IIIB |  | ATH8 | cytopathic effect / trypan blue |  | EC50 | >100 µM
Nc1ncnc2c1ncn2C=C=CCO | IIIB |  | MT-4 | cytopathic effect |  | EC50 | 5.8 µM
Cc1cn([C@H]2C[C@H](N=[N+]=[N-])[C@@H](CO)O2)c(=O)[nH]c1=O | IIIB |  | MT-4 | cytopathic effect / MTT |  | EC50 | 0.016 µM
Nc1ncnc2c1ncn2[C@H]1OC[C@@](F)(CCP(=O)(O)O)[C@H]1F | LAI |  | PBMC | MTT |  | EC50 | 12 µM
Cc1cn([C@H]2C=C[C@@H](CO)O2)c(=O)[nH]c1=O | IIIB |  | MT-4 | cytopathic effect / trypan blue |  | EC50 | 0.01 µM
Cc1cn([C@H]2C[C@H](N=[N+]=[N-])[C@@H](CO)O2)c(=O)[nH]c1=O |  |  | MT-4 | cytopathic effect |  | EC50 | 0.001 µg/mL
Cc1cn([C@H]2CC[C@@H](CO)O2)c(=O)[nH]c1=O | IIIB Laboratory strain |  | MT-4 | cytopathic effect / trypan blue |  | EC50 | 0.2 µM
O=c1ccn(C[C@H]2C[C@@]2(CO)c2ccccc2)c(=O)[nH]1 |  |  | MT-4 | cytopathic effect |  | EC50 | >100 µg/mL
Cc1ccc(C)c(Cn2c(=O)ccn(CC#N)c2=O)c1 | IIIB |  | PBMC |  |  | EC50 | 24.5 µM
Cc1cn([C@H]2C[C@H](N=[N+]=[N-])[C@@H](CO)O2)c(=O)[nH]c1=O | IIIB Laboratory strain |  | MT-4 | cytopathic effect / trypan blue |  | EC50 | 0.006 µM
Nc1ncnc2c1ncn2CCOCP(=O)(O)O | LAI |  | PBMC | MTT |  | EC50 | 5.2 µM
COC(=O)C(C)NP(=O)(OC[C@@H]1C/C1=C/n1cnc2c(N)nc(N)nc21)Oc1ccccc1 |  |  | CEM + CEM-SS |  |  | EC50 | 0.55 µM
Cc1cc(C)c(Cn2c(=O)ccn(CC#N)c2=O)c(C)c1 | IIIB |  | PBMC |  |  | EC50 | 192 µM
Nc1ncnc2c1ncn2C=C1CC1CO | IIIB |  | MT-4 | cytopathic effect / MTT |  | EC50 | 26 µM
Nc1nc2c(ncn2[C@H]2CO[C@@H](CO)O2)c(=O)[nH]1 |  |  | MT-2 |  |  | EC50 | 0.18 µM
Nc1ccn([C@@H]2C[C@H](CO)[C@H]2CO)c(=O)n1 | IIIB |  | ATH8 | cytopathic effect / trypan blue |  | EC50 | >500 µM
Cc1cc(C)cc(Cn2c(=O)ccn(CCc3ccccc3)c2=O)c1 | IIIB |  | PBMC |  |  | EC50 | 6.22 µM
O=c1ccn([C@@H]2C[C@H](CO)[C@H]2CO)c(=O)[nH]1 | IIIB |  | ATH8 | cytopathic effect / trypan blue |  | EC50 | >500 µM
CC(C)c1nc(CN(C)C(=O)N[C@H](C(=O)N[C@@H](Cc2ccccc2)C[C@H](O)[C@H](Cc2ccccc2)NC(=O)OCc2cncs2)C(C)C)cs1 | IIIB |  | MT-4 |  |  | EC50 | 1.34 µg/mL
N#CCn1ccc(=O)n(Cc2cc(F)cc(F)c2)c1=O | IIIB |  | PBMC |  |  | EC50 | 13.5 µM
Nc1nc(=O)n([C@@H]2CS[C@H](CO)O2)cc1F | IIIB |  | MT-2 |  |  | EC50 | 0.6 µM
CC(C)[C@H](NC(=O)OCc1ccccn1)C(=O)N[C@@H](Cc1ccccc1)C(=O)C(F)(F)[C@H](Cc1ccccc1)NC(=O)[C@@H](NC(=O)OCc1ccccn1)C(C)C | IIIB |  | MT-4 | cytopathic effect / MTT |  | EC50 | 0.04 µM
Nc1ncnc2c1ncn2[C@@H]1C[C@H](CO)[C@H]1CO | IIIB |  | ATH8 | cytopathic effect / trypan blue |  | EC50 | 1 µM
Nc1ccn([C@H]2CO[C@@H](CO)O2)c(=O)n1 | LAV |  | PBM | RT activity |  | EC50 | 0.0047 µM
Nc1ncnc2c1ncn2C[C@H]1C[C@@]1(CO)c1ccccc1 |  |  | MT-4 | cytopathic effect |  | EC50 | >100 µg/mL
Cc1cc(C)cc(Cn2c(=O)c(I)cn(Cc3ccccc3)c2=O)c1 | IIIB |  | PBMC |  |  | EC50 | 41.7 µM
Nc1ncnc2c1ncn2[C@@H]1C[C@H](CO)[C@H]1CO | IIIB |  | ATH8 | cytopathic effect / trypan blue |  | EC50 | 1.8 µM

Again, the opening 6 rows:

compound | strain | changes | cell line | method | conditions | read-out | result
CC(C)[C@H](NC(=O)N(C)Cc1ccccn1)C(=O)N[C@@H](Cc1ccccc1)C(=O)C(F)(F)[C@H](Cc1ccccc1)NC(=O)[C@@H](NC(=O)N(C)Cc1ccccn1)C(C)C | IIIB |  | MT-4 | cytopathic effect / MTT |  | EC50 | 0.035 µM
Nc1nc2c(ncn2[C@H]2OC[C@@](F)(CCP(=O)(O)O)[C@H]2F)c(=O)[nH]1 | LAI |  | PBMC | MTT |  | EC90 | 95 µM
O=c1[nH]cnc2c1ncn2[C@H]1CC[C@@H](CO)O1 | IIIB |  | MT-2 |  |  | EC50 | 20 µM
O=c1ccn(Cc2ccccc2)c(=O)n1-c1ccccc1 | IIIB |  | PBMC |  |  | EC50 | >216 µM
CC(C)=CCN1Cc2cc(Cl)cc3[nH]c(=S)n(c23)C[C@@H]1C |  | RT-K70R | MT-4 |  |  | EC50 | <1.5 µM
COC(=O)C(C)NP(=O)(OC[C@H]1C/C1=C/n1cnc2c(N)nc(N)nc21)Oc1ccccc1 |  |  | CEM + CEM-SS |  |  | EC50 | 3.5 µM